Data on 32 compounds can be found in ChEMBL document CHEMBL1759992, “Antidotes to anthrax lethal factor intoxication. Part 2: structural modifications leading to improved in vivo efficacy” (Bioorg Med Chem Lett, 2011).

The chains behind the UniProt entries cited, without tags or fusion partners. Residues count along the entry.
UniProt P15917, 34-809 limits assumed: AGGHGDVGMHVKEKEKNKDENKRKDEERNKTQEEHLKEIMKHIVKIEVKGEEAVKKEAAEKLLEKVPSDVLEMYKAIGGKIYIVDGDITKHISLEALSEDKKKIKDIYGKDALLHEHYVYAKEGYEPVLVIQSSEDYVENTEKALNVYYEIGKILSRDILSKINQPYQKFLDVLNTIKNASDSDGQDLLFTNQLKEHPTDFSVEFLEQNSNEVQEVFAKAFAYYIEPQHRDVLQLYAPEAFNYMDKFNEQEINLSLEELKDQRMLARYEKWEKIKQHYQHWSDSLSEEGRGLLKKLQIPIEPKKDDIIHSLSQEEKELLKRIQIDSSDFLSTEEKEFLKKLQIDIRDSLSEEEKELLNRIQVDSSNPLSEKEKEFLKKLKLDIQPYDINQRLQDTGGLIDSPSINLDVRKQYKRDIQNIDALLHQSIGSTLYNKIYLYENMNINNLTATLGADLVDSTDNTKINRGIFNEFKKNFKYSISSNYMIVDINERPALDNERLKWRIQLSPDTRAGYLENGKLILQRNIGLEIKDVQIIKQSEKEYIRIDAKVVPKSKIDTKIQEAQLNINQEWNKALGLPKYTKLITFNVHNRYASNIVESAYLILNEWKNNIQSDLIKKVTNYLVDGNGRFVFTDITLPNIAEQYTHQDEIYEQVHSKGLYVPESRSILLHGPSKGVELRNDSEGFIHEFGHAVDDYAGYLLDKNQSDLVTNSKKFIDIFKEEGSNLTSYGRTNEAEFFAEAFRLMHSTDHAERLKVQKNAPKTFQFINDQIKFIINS

This experiment deals with Lethal factor (Bacillus anthracis, UniProt P15917). Briefly: Inhibition of Bacillus anthracis lethal factor assessed as proteolysis using MCA-KKVYPYPME-Dap(Dnp)-NH2 peptide substrate after 4 hrs by FRET assay.

In general, Ki refers to a measure of affinity in units of concentration, obtained from inhibition or displacement. In the case of `O=C(NO)[C@@H](CCCCNCc1ccc(F)cc1)Nc1ccc(F)c(Cl)c1`, the Ki came to 3.8 nM.
Consider `Cc1cc(CCCCCC[C@@H](Cc2cc(C)c(F)c(C)c2)C(=O)NO)ccc1F`, for which the Ki came out at 577 nM.
The same measure for `Cc1cc(N[C@H](CCCCNCc2ccc(F)cc2)C(=O)NO)ccc1F`: 0.81 nM; for `CO[C@H](C[C@H](CCCCCNCCc1ccc(F)cc1)C(=O)NO)c1ccc(F)cc1`: 5 nM.
The same measure for `Cc1cc(N[C@H](CCCCNCCCc2ccc(F)cc2)C(=O)NO)cc(C)c1F`: 2.2 nM; for `CO[C@H](C[C@H](CCCCNCc1ccc(Cl)cc1)C(=O)NO)c1ccc(F)c(C)c1`: 1.4 nM; for `Cc1cc(COCCCC[C@@H](Cc2cc(C)c(F)c(C)c2)C(=O)NO)ccc1F`: 25 nM.
`CO[C@H](C[C@H](CCCCNCc1ccc(F)c(C)c1)C(=O)NO)c1ccc(F)cc1`: the Ki was 1.5 nM.
As for `Cc1cc(C[C@H](CCCCNCc2ccc(Cl)cc2)C(=O)NO)ccc1F`, the figure is 0.36 nM; as for `Cc1cc(O[C@H](CCCCNCc2ccc(F)cc2)C(=O)NO)ccc1F`, 1.1 nM; as for `Cc1cc(CNCCCC[C@@H](Nc2ccc(F)c(C)c2)C(=O)NO)ccc1F`, 0.62 nM.
For the compound `Cc1cc(O[C@H](CCCCNCCc2ccc(F)cc2)C(=O)NO)cc(C)c1F`, the Ki was determined as 4.6 nM.
The same measure for `CO[C@H](C[C@H](CCCCNCc1ccc(F)cc1)C(=O)NO)c1ccc(F)c(C)c1`: 0.93 nM.
For `Cc1cc(N[C@H](CCCCNCc2ccc(Cl)cc2)C(=O)NO)ccc1F`, the Ki was 0.68 nM.
The same measure for `Cc1cc(CNCCCC[C@@H](Cc2ccc(F)c(C)c2)C(=O)NO)ccc1F`: 1.2 nM; for `Cc1cc(C[C@H](CCCCNCc2ccc(Cl)cc2)C(=O)NO)cc(C)c1F`: 0.71 nM.
For `CO[C@H](C[C@H](CCCCCNCc1ccc(F)cc1)C(=O)NO)c1ccc(F)cc1`, the Ki amounted to 4.6 nM.
Consider `Cc1cc(CCCCCC[C@@H](Nc2cc(C)c(F)c(C)c2)C(=O)NO)ccc1F`, for which the Ki amounted to 273 nM.
Turning to `CO[C@H](C[C@H](CCCCNCc1ccc(F)c(C)c1)C(=O)NO)c1ccc(F)c(C)c1`, the Ki worked out at 1.3 nM.
`Cc1cc(O[C@H](CCCCNCc2ccc(Cl)cc2)C(=O)NO)ccc1F`: the Ki worked out at 0.75 nM.
Regarding `Cc1cc(CNCCCC[C@@H](Oc2cc(C)c(F)c(C)c2)C(=O)NO)ccc1F`, the Ki amounted to 2.4 nM.
Consider `Cc1cc(O[C@H](CCCCCNCc2ccc(F)cc2)C(=O)NO)cc(C)c1F`, for which the inhibitory constant (Ki) worked out at 3.1 nM.
As for `CO[C@H](C[C@H](CCCCNCc1ccc(Cl)cc1)C(=O)NO)c1ccc(F)cc1`, the figure is 1.2 nM; as for `Cc1cc(N[C@H](CCCCNCc2ccc(Cl)cc2)C(=O)NO)cc(C)c1F`, 1 nM; as for `Cc1cc(CNCCCC[C@@H](Oc2ccc(F)c(C)c2)C(=O)NO)ccc1F`, 3 nM.
As for `Cc1cc(C[C@H](CCCCNCCc2ccc(F)cc2)C(=O)NO)cc(C)c1F`, the Ki was 9.5 nM.
For the compound `CO[C@H](C[C@H](CCCCNCCc1ccc(F)cc1)C(=O)NO)c1ccc(F)cc1`, the inhibition constant Ki amounted to 1.1 nM.
As for `Cc1cc(O[C@H](CCCCCNCCc2ccc(F)cc2)C(=O)NO)cc(C)c1F`, the figure is 3.3 nM.
As for `Cc1cc(COCCCC[C@@H](Nc2cc(C)c(F)c(C)c2)C(=O)NO)ccc1F`, the figure is 30.4 nM; as for `Cc1cc(O[C@H](CCCCNCc2ccc(Cl)cc2)C(=O)NO)cc(C)c1F`, 2 nM.
The same measure for `Cc1cc(C[C@H](CCCCNCc2ccc(F)cc2)C(=O)NO)ccc1F`: 0.25 nM; for `Cc1cc(CNCCCC[C@@H](Cc2cc(C)c(F)c(C)c2)C(=O)NO)ccc1F`: 0.39 nM.
